PubChem BioAssay AID624099 | ICCB-Longwood | 2012
The whole screen tested about 21,000 reagents; this is an unselected part. Of all reagents, 497 (2.4%) are marked active. 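Higher z means weaker E2 silencing; only reporter increases were scored, and knock-downs that hurt cell survival may mask genuine repressor factors.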 Reagents against one gene are numbered here. No sequences are given here.

Aim: 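Knock-downs relieving repression by E2 of an HPV18 LCR luciferase reporter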 (primary screen)
Cells: human C33A cervical carcinoma cells (HPV-negative) stably expressing BPV1 E2 and an HPV18 LCR luciferase reporter
Reagent: siRNA pool against human genes, 40 nM
Duration: 72 h
Measured: 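Per-well luciferase luminescence, z-scored on each plate against the plate mean and SD with control wells left out, then averaged across three replicate plates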
Scale: mean z-score and z-score: higher = stronger reporter signal, weaker E2 silencing
Hit rule: 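Hit if mean z-score reaches 2 and two or more of three replicate z-scores also reach 2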

Against FCHSD1 (FCH and double SH3 domains 1) the deposit lists mean z-score -1.21; z-score, replicate A = -1.66; z-score, replicate B = -1.51; z-score, replicate C = -0.46; inactive.
FAM120B (family with sequence similarity 120 member B) gave mean z-score -0.4; z-score, replicate A = -0.49; z-score, replicate B = -0.39; z-score, replicate C = -0.31; inactive.
Silencing of DENND2C (DENN domain containing 2C) gave: mean z-score 0.23; z-score, replicate A = 0.19; z-score, replicate B = 0.31; z-score, replicate C = 0.19; inactive.
After knock-down of LOC389831, the record shows mean z-score 0.85; z-score, replicate A = 0.82; z-score, replicate B = 0.95; z-score, replicate C = 0.8; inactive.
HDHD3 (haloacid dehalogenase like hydrolase domain containing 3) gave mean z-score 0.78; z-score, replicate A = 1.03; z-score, replicate B = 0.51; z-score, replicate C = 0.79; inactive.
For LOC388806 (retired record), the entry reads mean z-score -0.87; z-score, replicate A = -0.63; z-score, replicate B = -0.85; z-score, replicate C = -1.13; inactive.
Silencing of KCMF1 (potassium channel modulatory factor 1) came out at: mean z-score 1.04; z-score, replicate A = 0.97; z-score, replicate B = 1.18; z-score, replicate C = 0.97; inactive.
Silencing of SLC7A9 came out at: mean z-score 1.02; z-score, replicate A = 0.81; z-score, replicate B = 0.91; z-score, replicate C = 1.33; inactive.
ODAD1 (outer dynein arm docking complex subunit 1) scored mean z-score -0.41; z-score, replicate A = -0.06; z-score, replicate B = -0.22; z-score, replicate C = -0.94; inactive.

Just “z-score, replicate C”, for 3 of the entries above:
LOC389831 = 0.8
HDHD3 (haloacid dehalogenase like hydrolase domain containing 3) = 0.79
LOC388806 (retired record) = -1.13

Next results:
After knock-down of UNCX (UNC homeobox), the record shows mean z-score 0.19; z-score, replicate A = 0.23; z-score, replicate B = 0.02; z-score, replicate C = 0.33; inactive.
Knock-down of ADAMTS1 (ADAM metallopeptidase with thrombospondin type 1 motif 1) resulted in: mean z-score 0.41; z-score, replicate A = 0.18; z-score, replicate B = 0.59; z-score, replicate C = 0.47; inactive.
RRM2 (ribonucleotide reductase regulatory subunit M2) #1 gave mean z-score 4.5; z-score, replicate A = 4.89; z-score, replicate B = 4.54; z-score, replicate C = 4.08; active.
Depletion of RRM2 (ribonucleotide reductase regulatory subunit M2) #2 gave: mean z-score 0.03; z-score, replicate A = -0.3; z-score, replicate B = -0.03; z-score, replicate C = 0.42; inactive.
RAB3A (RAB3A, member RAS oncogene family) showed mean z-score 0.23; z-score, replicate A = 0.23; z-score, replicate B = 0.22; z-score, replicate C = 0.23; inactive.
After knock-down of GINS3 (GINS complex subunit 3) the results were mean z-score -1.01; z-score, replicate A = -0.91; z-score, replicate B = -1.36; z-score, replicate C = -0.77; inactive.
Knock-down of LOC401358 (retired record) resulted in: mean z-score 0.25; z-score, replicate A = 0.16; z-score, replicate B = 0.43; z-score, replicate C = 0.15; inactive.
Depletion of RXRG (retinoid X receptor gamma) came out at: mean z-score 1.35; z-score, replicate A = 1.59; z-score, replicate B = 1.02; z-score, replicate C = 1.43; inactive.
OSM (oncostatin M) scored mean z-score -0.07; z-score, replicate A = -0.17; z-score, replicate B = -0.01; z-score, replicate C = -0.01; inactive.
Silencing of NDST1 (N-deacetylase and N-sulfotransferase 1) resulted in: mean z-score 0.65; z-score, replicate A = 0.65; z-score, replicate B = 0.65; z-score, replicate C = 0.64; inactive.
POFUT3 (protein O-fucosyltransferase 3) showed mean z-score -0.06; z-score, replicate A = -0.32; z-score, replicate B = 0.05; z-score, replicate C = 0.1; inactive.
DNAJC5G (DnaJ heat shock protein family (Hsp40) member C5 gamma) showed mean z-score -0.54; z-score, replicate A = -0.64; z-score, replicate B = -0.52; z-score, replicate C = -0.45; inactive.
LOC392634 (retired record) gave mean z-score 0.43; z-score, replicate A = 0.52; z-score, replicate B = 0.57; z-score, replicate C = 0.21; inactive.
For NOL8 (nucleolar protein 8) the deposit lists mean z-score -0.9; z-score, replicate A = -0.34; z-score, replicate B = -0.6; z-score, replicate C = -1.78; inactive.
After knock-down of ZNF454 (zinc finger protein 454), the screen gave mean z-score 1.07; z-score, replicate A = 0.96; z-score, replicate B = 0.94; z-score, replicate C = 1.3; inactive.
Silencing of ACTA2 (actin alpha 2, smooth muscle) resulted in: mean z-score 0.18; z-score, replicate A = 0.24; z-score, replicate B = 0.15; z-score, replicate C = 0.14; inactive.
PRELID1P5 (PRELID1 pseudogene 5) scored mean z-score -0.15; z-score, replicate A = -0.38; z-score, replicate B = -0.12; z-score, replicate C = 0.04; inactive.
N4BP3 (NEDD4 binding protein 3) scored mean z-score -1.7; z-score, replicate A = -1.01; z-score, replicate B = -1.88; z-score, replicate C = -2.21; inactive.
